Article PMC10150359 (Journal of Medicinal Chemistry, 2023)

Experiments:
[1] = tested on: EBOV-GP-Pseudotype Virus (pEBOV); conditions: CC50 HeLa / EC50 pEBOV
[2] = tested on: wild-type Zaire EBOV Mayinga 1976 strain (EBOV May); assay: Antiviral activity against replicative EBOV in Vero E6 cells (immunofocus assay)

Compound | SI (pEBOV) (CC50/EC50) [1] | SI (CC50/EC50), replicative EBOV [2]
O=C(CCNCCC1CCN(Cc2ccccc2)CC1)NN(c1ccccc1)c1ccccc1 [Compound 11, 3-((2-(1-Benzylpiperidin-4-yl)ethyl)amino)-N′,N′-diphenylpropanehydrazide] | 115 | 31.5
O=C(CCNCCN1CCN(Cc2ccccc2)CC1)NN(c1ccccc1)c1ccccc1 [Compound 13, 3-((2-(4-Benzylpiperazin-1-yl)ethyl)amino)-N′,N′-diphenylpropanehydrazide] | 274 | 13.1
